Laboratory results taken from patent US4180506A, “6β-Bromo penicillanic acid” (priority 1978, dated 1979).
Read-outs that look alike come from different tables or passages of the source.

By UniProt entry, the sequences of proteins in these tests, tags left out. Residues count along the entry.
UniProt P00809, 28-306 limits assumed: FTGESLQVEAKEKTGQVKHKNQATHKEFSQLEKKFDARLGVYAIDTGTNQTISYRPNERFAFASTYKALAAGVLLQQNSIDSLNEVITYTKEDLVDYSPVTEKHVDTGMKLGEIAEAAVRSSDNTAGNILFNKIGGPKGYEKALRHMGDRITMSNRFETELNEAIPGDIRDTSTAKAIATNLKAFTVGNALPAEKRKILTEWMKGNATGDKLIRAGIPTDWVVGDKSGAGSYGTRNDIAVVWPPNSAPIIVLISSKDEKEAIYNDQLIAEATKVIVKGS

Experiments:
[1] = test system: two penicillinase-producing animal-pathogenic strains of Staphylococcus aureus; assay: Disc agar diffusion tests, summary for two penicillinase-producing strains; assay type: cell-based, Staphylococcus aureus MB-3648 and MB-3649
[2] = test system: various gram positive and gram negative bacteria; conditions: literature: Clayton, J. Chem. Soc. C, 2123-2127 (1969); cited from earlier work
β-lactamases = assay: β-Lactamase inhibitory activity (general statement); assay type: biochemical
[3] = test system: various gram positive and gram negative bacteria; assay: Antibacterial activity (general statement)
B. cereus β-lactamase I = B. cereus β-lactamase I (Bacillus cereus, UniProt P00809); assay: Correlation between β-lactamase inhibition and 6β-bromopenicillanic acid content in mixtures; conditions: assuming a 1:1 enzyme inhibitor interaction
[4] = subinhibitory concentration (1/4 MZC), extrapolated on standard/regression curve
[5] = listed as 6β-bromo penicillanic acid

With `CC1(C)S[C@@H]2C(Br)C(=O)N2[C@H]1C(=O)O` (stereo partly drawn) the “Potentiation of Pen G” value [1, 4] was 64 fold, the Potentiation of ampicillin [1, 4] was 32 fold and the “1/4 of minimum zone-inducing concentration (1/4MZC)” value ([1]; substance alone vs either MB3648 or MB3649) was 32 µg/mL.

In the case of `CC1(C)S[C@H]2N(C(=O)C2(Br)Br)[C@H]1C(=O)O`, the Antibacterial activity [2] is given as “did not show any significant antibacterial activity”.

For `CC1(C)SC2C(Br)C(=O)N2C1C(=O)O` (stereo not drawn), the β-lactamase inhibitory activity (β-lactamases) was “the inhibitor is the 6β-bromopenicillanic acid”, the β-lactamase inhibitory activity (β-lactamases; [5]) was “possesses both antibacterial and β-lactamase inhibitory activities” and the Antibacterial activity ([3]; listed as 6-β-bromo penicillanic acid) was “at levels similar to that of clavulanic acid”. The Antibacterial activity [3, 5] was “possesses both antibacterial and β-lactamase inhibitory activities” and the “% Inhibition of B. cereus β-lactamase I” value (B. cereus β-lactamase I) was 0%.
